Measured values taken from patent US20030044399A1, “Method of treatment” (SmithKline Beecham Corporation, priority 1998, published 2003).

Sequences of proteins named here, by UniProt entry; tags and fusion partners are left off. Residues count along the entry.
UniProt Q95PM0, 1-450: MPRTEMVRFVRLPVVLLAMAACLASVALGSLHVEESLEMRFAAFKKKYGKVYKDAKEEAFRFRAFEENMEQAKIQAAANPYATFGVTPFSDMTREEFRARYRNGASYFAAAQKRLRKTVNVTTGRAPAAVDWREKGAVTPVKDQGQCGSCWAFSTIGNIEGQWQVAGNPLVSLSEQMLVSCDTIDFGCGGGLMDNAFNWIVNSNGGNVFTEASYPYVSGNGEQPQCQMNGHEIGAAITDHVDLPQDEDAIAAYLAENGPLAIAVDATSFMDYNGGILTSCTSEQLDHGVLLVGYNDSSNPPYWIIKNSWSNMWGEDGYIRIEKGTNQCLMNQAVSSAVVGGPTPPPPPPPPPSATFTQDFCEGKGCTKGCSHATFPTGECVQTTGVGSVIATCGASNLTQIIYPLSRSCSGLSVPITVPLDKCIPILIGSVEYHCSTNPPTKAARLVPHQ
UniProt P25779, 123-337 limits assumed: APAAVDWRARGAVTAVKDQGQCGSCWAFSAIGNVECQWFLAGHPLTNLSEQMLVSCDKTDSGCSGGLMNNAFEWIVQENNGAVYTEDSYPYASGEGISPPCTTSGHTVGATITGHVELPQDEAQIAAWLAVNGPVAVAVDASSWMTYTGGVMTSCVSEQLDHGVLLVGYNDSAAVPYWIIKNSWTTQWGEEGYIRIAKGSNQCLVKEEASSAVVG

Key:
Rhodazain = Rhodazain (Trypanosoma brucei rhodesiense, UniProt Q95PM0); assay: Cysteine protease inhibition, progress curve method, rhodazain; format: biochemical, Trypanosoma brucei rhodesiensi; details: read-out: Rhodazain Ki; 10 uM Cbz-Leu-Arg-AMC, 100 mM Na acetate pH 5.5, 5 mM cysteine
Method: (§1) Standard assay conditions for the determination of kinetic constants used 10 uM fluorogenic peptide substrate, Cbz-Phe-Arg-AMC for the cysteine proteases from Leishmania spp and Schistosoma Mansoni, Cbz-Leu-Arg-AMC for the cysteine proteases from Plasmodium falciparum and Trypanosoma brucei rhodesiensi, and Ac-Lys-Glu-Lys-Leu-Arg-AMC (4 uM final substrate concentration) for the cysteine protease from Trypoanosoma cruzi, and were determined in 100 mM Na acetate at pH 5.5 containing 5 mM cysteine. Stock substrate solutions were prepared at concentrations of […] in DMSO with 10 uM (4 uM for Ac-Lys-Glu-Lys-Leu-Arg-AMC) final substrate concentration in the assays. The final DMSO concentration was 2% and the final volume was 100 uL. All assays were conducted at ambient temperature. […]
(§2) Potential inhibitors were evaluated using the progress curve method. […] For those compounds whose progress curves were linear, apparent inhibition constants (Ki,app) were calculated according to equation 1 (Brandt et al., Biochemitsry, 1989, 28, 140): […]
(§3) Where [AMC] is the concentration of product formed over time t, v0 is the initial reaction velocity and vss is the final steady state rate. Values for kobs were then analyzed as a linear function of inhibitor concentration to generate an apparent second order rate constant (kobs/inhibitor concentration or kobs/[I]) describing the time-dependent inhibition. […]

Cruzain = Cruzain (Trypanosoma cruzi, UniProt P25779); assay: Cysteine protease inhibition, progress curve method, cruzain; format: biochemical; details: read-out: Cruzain Ki nM; 4 uM Ac-Lys-Glu-Lys-Leu-Arg-AMC, 100 mM Na acetate pH 5.5, 5 mM cysteine
Method: as §1, §2, §3

Structure (SMILES) | Ki (Rhodazain) [nM] | Ki (Cruzain) [nM]
O=C(N[C@@H](Cc1ccccc1)C(=O)NC1CCCN(S(=O)(=O)c2ccccn2)CC1=O)c1cccc2ccccc12 (stereo partly drawn) | 5.7 | –
CC(C)C[C@H](NC(=O)c1cc2sccc2s1)C(=O)NC1CCCN(S(=O)(=O)c2ccccn2)CC1=O (stereo partly drawn) | 5.9 | 9
